Only a part is listed here, and it is no random draw. Active and inactive are the calls of the source.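 The calls were made as follows: active = inhibition above the mean of all tested compounds plus 3 SD, set per screening campaign (cut at about 45% in these data); inactive = the rest.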

The subject of this test is HCV core protein (residues 1-106) dimerization. The experiment in a line: blockers of core106 self-association – biochemical, TR-FRET, high-throughput, primary screen (AID 1899). The following applies: TR-FRET GST/Flag-core106 dimerization, 1536-well; at 5 µM; stronger effect = higher value. In a few lines: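 test system = GST/Flag-tagged HCV core106 proteins | probe or stimulus = Eu donor and XL665 acceptor anti-tag antibodies | times = compound-protein-antibody incubation 4 h at 22.5 °C | signal = TR-FRET, excitation 340 nm, emission 617 and 671 nm | measure = percent inhibition of core106 dimerization signal | controls = wells lacking GST-core106 and wells with excess unlabelled core106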
`N#CC1(Nc2ccccc2)CCN(CCc2ccccc2)CC1`: the inhibition was inactive: -5.19%.
With `CCN1CCC(Nc2ccc(Cl)cc2)CC1` the figure was inactive: 5.73%; with `O=C(NCC1(N2CCCCC2)CCCCC1)c1cccc([N+](=O)[O-])c1`, inactive: -1.49%.
In the case of `O=C(NCC1(N2CCCCC2)CCCCC1)c1ccc(OC(F)F)cc1`, the inhibition is inactive: -5.92%.
In the case of `COc1cc(C(=O)NCC2(N3CCCCC3)CCCCC2)ccc1OC(F)F`, the inhibition is inactive: -1.52%.
With `O=C(NCC1(N2CCOCC2)CCCCC1)c1cc(=O)[nH]c2ccccc12` the figure was inactive: 0.76%; with `CN1CCN(CCOC(=O)C(O)(c2ccccc2)c2ccccc2)CC1`, inactive: -6.78%; with `COc1ccc(NC2CCN(C(=O)OC(C)(C)C)CC2)cc1`, inactive: -7.41%.
As for `O=C(NCC1(N2CCCCC2)CCCCC1)c1cccc(C(F)(F)F)c1`, the inhibition was inactive: 6.01%.
Take `COc1cc(OC)c(C(=O)NCC2(N(C)C)CCCCC2)cc1OC`: the inhibition was inactive: 1.09%.
The value for `CC(C)c1ccc(NC2CCN(C(=O)OC(C)(C)C)CC2)cc1` was inactive: 0.19%.
`CN(C)c1cccc(C(=O)NCC2(N3CCCCC3)CCCCC2)c1`: the inhibition is inactive: -2.16%.
Consider `COc1ccc(CN(CCCl)CCCl)cc1Cl`, for which the inhibition was inactive: -1.54%.
With `CN1CCC(Nc2cccc(F)c2)CC1` the figure was inactive: 2.83%.
The value for `CSc1ccccc1C(=O)NCC1(N2CCCCC2)CCCCC1` was inactive: 14.7%; that for `COc1ccc(C(=O)NCC2(N3CCCCC3)CCCCC2)c(OC)c1OC` was inactive: -0.89%; that for `CC(C)(C)OC(=O)N1CCC(N(C(=O)c2ccccc2)c2ccc(F)cc2)CC1` was inactive: 8.31%.
With `COc1ccc(C(=O)NCC2(N3CCCCC3)CCCCC2)cc1`, the inhibition is inactive: -6.85%.
The value for `O=C(NCC1(N2CCCCC2)CCCCC1)c1cccs1` was inactive: 0.63%.
Take `O=C(NCC1(N2CCCCC2)CCCCC1)c1ccc(=O)[nH]c1`: the inhibition was inactive: 2.68%.
`N#CC1(Nc2ccccc2)CCN(Cc2ccccc2)CC1`: the inhibition is inactive: 1.34%.
Turning to `O=C(OC1CN2CCC1CC2)C1c2ccccc2Oc2ccccc21` (stereo unspecified), the inhibition was inactive: -1.35%.
The value for `CCOC(=O)N1CCC(Nc2ccc(OC)cc2)CC1` was inactive: -6.98%; that for `Cc1cc(C)cc(N(C(=O)c2ccccc2)C2CCN(C(=O)OC(C)(C)C)CC2)c1` was inactive: 11.5%.
With `O=C(NCC1(N2CCCCC2)CCCCC1)c1ccc(Cl)nc1` the figure was inactive: -2.6%; with `O=C(NCC1(N2CCOCC2)CCCCC1)c1cc2ccccc2o1`, inactive: 7.55%.
`COc1ccc(NC2CCN(CCc3ccccc3)CC2)c(OC)c1`: the inhibition was inactive: -9.85%.
For the molecule `O=C(NCC1(N2CCCCC2)CCCCC1)c1ccc(F)cc1`, the inhibition was inactive: -0.67%.
The value for `CCOc1ccc(C)cc1CN(CCCl)CCCl` was inactive: -1.11%; that for `Cc1ccc(OCC(C)C)c(CN(CCCl)CCCl)c1` was inactive: 4.83%; that for `CCOC(=O)N1CCC(Nc2cccc(C)c2)CC1` was inactive: 12.8%.
With `Fc1ccccc1NC1CCN(Cc2ccccc2)CC1` the figure was inactive: -5.17%; with `Cc1ccc(C(=O)NCC2(N3CCCCC3)CCCCC2)o1`, inactive: 6.79%; with `COc1cc(OC)cc(C(=O)NCC2(N3CCCCC3)CCCCC2)c1`, inactive: -2.36%.
Regarding `CN(C)c1ccc(C(=O)NCC2(N3CCCCC3)CCCCC2)cc1`, the inhibition was inactive: 1.11%.
With `CCN1CCC(Nc2cccc(F)c2)CC1` the figure was inactive: -13.4%; with `O=C(O)C1(Nc2ccccc2)CCN(Cc2ccccc2)CC1`, inactive: 4.99%.
In the case of `CC(C)(C)OC(=O)N1CCC(Nc2ccccc2)CC1`, the inhibition was inactive: 0.33%.
On to `CCCOc1ccc(C(=O)NCC2(N(C)C)CCCCC2)cc1`, for which the inhibition was inactive: -3.61%.
For the molecule `CN1CCC(Nc2ccc(F)c(Cl)c2)CC1`, the inhibition is inactive: -6.32%.
For `CCOc1ncccc1C(=O)NCC1(N2CCOCC2)CCCCC1`, the inhibition is inactive: -2.18%.
With `CN1CCC(Nc2ccc(Cl)cc2)CC1`, the inhibition was inactive: 9.74%.
For `CCCOc1ccc(C)cc1CN(CCCl)CCCl`, the inhibition was inactive: 0.99%.
For `COc1cc(OC)cc(C(=O)NCC2(N3CCOCC3)CCCCC2)c1`, the inhibition is inactive: 6.12%.
With `COc1cccc(C(=O)N(c2cc(C)cc(C)c2)C2CCN(C(=O)OC(C)(C)C)CC2)c1` the figure was inactive: 11.7%.
As for `CCC(CO)(C(=O)OC1CN2CCC1CC2)c1ccccc1` (stereo unspecified), the inhibition was inactive: -5.58%.
Turning to `COc1ccc(C(=O)NCC2(N3CCOCC3)CCCCC2)cc1OC`, the inhibition is inactive: -0.16%.
As to `CCc1cc(C(=O)NCC2(N3CCCCC3)CCCCC2)sc1C`, the inhibition was inactive: -2.32%.
With `O=C(OC1CN2CCC1CC2)C1c2ccccc2C=Cc2ccccc21` (stereo unspecified) the figure was inactive: 1.48%; with `CCOC(=O)N1CCC(Nc2ccc(C)cc2)CC1`, inactive: 8.01%; with `N/C(=N\O)c1c(N)no[n+]1[O-]`, inactive: -6.11%.
With `N#Cc1ccc(C(=O)NCC2(N3CCCCC3)CCCCC2)cc1`, the inhibition is inactive: 11.8%.
Take `CC(C)(C)OC(=O)N1CCC(N(C(=O)c2ccccc2)c2ccc(Cl)cc2)CC1`: the inhibition was inactive: 8.27%.
For the molecule `CN(C)C1(CNC(=O)c2cccc(C#N)c2)CCCCC1`, the inhibition was inactive: 1.24%.
The value for `CCCN1CCC(Nc2cc(OC)cc(OC)c2)CC1` was inactive: -2.2%; that for `c1ccc(CN2CCC(Nc3ccccc3)CC2)cc1` was inactive: -8.18%.

Usually inhibition stands for the relative decrease from the control value, in per cent.

The values above are taken from PubChem BioAssay AID1899 (The Scripps Research Institute Molecular Screening Center, 2009).
